# Measurements: article PMC10366084, “Two point mutations in protocadherin-1 disrupt hantavirus recognition and afford protection against lethal infection” (Nature Communications, 2023)
# B1: sEC1-4(T141C/G337C) (with C432S) (domain or fragment)
# chain: TRVVYKVPEEQPPNTLIGSLAADYGFPDVGHLYKLEVGAPYLRVDGKTGDIFTTETSIDREGLRECQNQLPGDPCILEFEVSICDLVQNGSPRLLEGQIEVQDINDNTPNFASPVITLAIPENTNIGSLFPIPLASDRDAGPNGVASYELQAGPEAQELFGLQVAEDQEEKQPQLIVMGNLDRERWDSYDLTIKVQDGGSPPRASSALLRVTVLDTNDNAPKFERPSYEAELSENSPIGHSVIQVKANDSDQGANAEIEYTFHQAPEVVRRLLRLDRNTCLITVQGPVDREDLSTLRFSVLAKDRGTNPKSARAQVVVTVKDMNDNAPTIEIRGIGLVTHQDGMANISEDVAEETAVALVQVSDRDEGENAAVTSVVAGDVPFQLRQASETGSDSKKKYFLQTTTPLDYEKVKDYTIEIVAVDSGNPPLSSTNSLKVQVVDVNDNA
# modifications: intersubunit disulfide between the engineered cysteines at 141 and 337
# Target: the molecule itself
protein,measurement,value
B1,stoichiometry N,2
